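Whole-cell growth test on Mycobacterium tuberculosis, read after 3 days in glucose-containing 7H9 medium; the read-out is not stated. Tested at 500 µM. Direction is inferred from retests: higher values go with more growth inhibition. Of about 18,000 compounds tested this way, about 1,400 (7.9%) reached 50% or more in at least one test.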

Each number is a percent effect as filed.
The controls that fix the scale are not given in the record; negative values are as filed.
The entries come from a sample that favours strong results.

Result for CC(C)Oc1ccc(C(O)CN)cc1 (stereo unspecified) was 15.44%.
Result for Cc1ccc2ncc(CO)cc2c1 was 31.59%.
Result for COCC(=O)N1CCCN(Cc2ncc[nH]2)CC1 was 1.38%.
Result for OCC1(O)CCCN(CCn2cc(Cl)cn2)CC1 (stereo unspecified) was -2.672%.
Result for Cn1ccnc1C(N)c1ccccc1F (stereo unspecified) was 5.255%.
Result for CN(C)c1ccc(C(=O)N2CCC(O)CC2)cc1 was 12.18%.
Result for NCC1CC(=O)N(C2CCCC2)C1 (stereo unspecified) was 10.69%.
Result for CN(C(=O)c1cnn2cccnc12)C1CCCC1 was 0.4291%.
Result for C[C@@H](O)CNC(=O)NCCCc1nc2c(s1)CCCC2 was 36.92%.
Result for Cc1cc(C2CC2)nc(N)n1 was -11.44%.
Result for CCN(CC(=O)NC)S(=O)(=O)N1CCOCC1 was -2.095%.
Result for COc1ccc(Cl)cc1-n1nnc(C(N)=O)c1N was 40.05%.
Result for CCC1(CNC(=O)NCc2nnnn2C2CC2)CCC1 was 13.48%.
Result for CC(C)c1ccc(NC(=O)C2COCCN2C)cc1 (stereo unspecified) was 61.59%.
Result for COCCOC1CCN(c2cc(N)nc(C)n2)CC1 was 10.85%.
Result for CC(C)(O)CSc1nnc(NCc2ccco2)s1 was 68.61%.
Result for CCC(C)n1nc(C)cc1NC(=O)NCCNC(C)=O (stereo unspecified) was 9.224%.
Result for CC(=O)N1CCN(CCNC(=O)Nc2nncs2)CC1 was -1.51%.
Result for CSCc1ccc(C(=O)N(C)Cc2cnccn2)o1 was 6.548%.
Result for Cc1cc(N2CCS(=O)(=O)CC2)nc2ccccc12 was -2.51%.
Result for CC(Nc1ccc(OC(F)F)cn1)c1ccncc1 (stereo unspecified) was 72.14%.
Result for CC1CCN(S(=O)(=O)NC(C)C(C)C)CC1 (stereo unspecified) was 33.23%.
Result for Cc1ccnc(CN)n1 was 7.061%.
Result for CCn1cc(OCCCS(=O)(=O)C(C)C)cn1 was -4.822%.
Result for NC(=O)NC(=O)CCN1CCCc2c(Br)cccc2C1 was 81.98%.
Result for CC(C)(C)Sc1cc(CNC(=O)C2CCCN2)ccn1 (stereo unspecified) was 6.774%.
Result for Cc1cccnc1CCO was 0.4935%.
Result for CCCn1cc(NC(=O)c2ccc(O)nc2)ccc1=O was 0.5908%.
Result for COCCCNC(=O)CN1CCn2cccc2C1C (stereo unspecified) was -14.62%.
Result for CCn1ccc(C(=O)N(C)Cc2cccnc2OC)n1 was 60.43%.
Result for COc1cccc2c(N)c(C)cnc12 was -38.1%.
Result for COC(=O)CCNC(=O)c1nc(SC)n2ccccc12 was 10.11%.
Result for CNCc1nnc2n1CCC2 was -14.76%.
Result for CC(=O)NC(C(=O)Nc1ccc(N(C)C)nc1)C(C)C (stereo unspecified) was 0.4217%.
Result for Cc1ccc(CCC(C)NC(CO)CO)cc1 (stereo unspecified) was 39.46%.

For reference, 3 entries once more:

Compound,effect
CCCn1cc(NC(=O)c2ccc(O)nc2)ccc1=O,0.5908
CC(=O)N1CCN(CCNC(=O)Nc2nncs2)CC1,-1.51
COCC(=O)N1CCCN(Cc2ncc[nH]2)CC1,1.38

From ChEMBL document CHEMBL3988442, “University of Dundee, Small-Polar-MMV Screening Library” (2021).